As usually defined, the Kd is the free concentration of one partner at which half of the binding sites on the other are occupied at equilibrium, for simple one-to-one binding.

Data on two molecules can be found in patent publication US20100104580A1, “Altered Immunogenic Landscape in HIV-1 Envelope Proteins” (priority 2008, published 2010).

In this experiment the target is HIV-1YU2gp120 (HIV-1 YU2), P35961. The experiment in a line: method not given.

In the case of RINNIPWSEAMM (modifications not checked) [HNG-124], the Kd came out at 9 nM.
RINNIPWSEAMM (modifications not checked) [HNG-113] yielded a Kd of 12 nM. This Kd and that of the molecule before are within 1.5-fold of each other.
